A mixed list of measured activities; the numbers were collected in NIAID ChemDB.

All rows: whole-cell or culture tests; organism: Mycobacterium avium complex; read-out: MIC90

Two numbers with a dash give a range or band.

smiles | strain | result
CC[C@@H](CO)NCCN[C@@H](CC)CO | 32 isolates | 8 µg/mL
COC(C(N)=NC1C(=O)N2C(C(=O)[O-])=C(C[N+]3(C)C=CC=C3)CSC12)c1cnc(N)s1 |  | 31.1 µg/mL
CC[C@@H](CO)NCCN[C@@H](CC)CO | 37 strains | 8 µg/mL
CC[C@H]1OC(=O)[C@H](C)[C@@H](O[C@H]2C[C@@](C)(OC)[C@@H](O)[C@H](C)O2)[C@H](C)[C@@H](O[C@@H]2O[C@H](C)C[C@H](N(C)C)[C@H]2O)[C@](C)(O)C[C@@H](C)CN(C)[C@H](C)[C@@H](O)[C@]1(C)O | 15 strains | 62 µg/mL
CCN(CC)CCN=c1cc2n(-c3ccc(Cl)cc3)c3ccccc3nc-2cc1Nc1ccc(Cl)cc1 |  | 0.4 µg/mL
CC1CN(c2c(F)cc3c(=O)c(C(=O)O)cn(C4CC4)c3c2F)CCN1 | 14 strains | 2 µg/mL
CN(C)c1ccc(O)c2c1C[C@H]1C[C@H]3[C@H](N(C)C)C(=O)C(C(N)=O)=C(O)[C@@]3(O)C(=O)C1=C2O | 11 strains | >64 µg/mL
CO[C@H]1/C=C/O[C@@]2(C)Oc3c(C)c(O)c4c(O)c(c(/C=N/N5CCN(C6CCCC6)CC5)c(O)c4c3C2=O)NC(=O)/C(C)=C\C=C\[C@H](C)[C@H](O)[C@@H](C)[C@@H](O)[C@@H](C)[C@H](OC(C)=O)[C@@H]1C |  | 0.81 µg/mL
CC(=O)NC[C@H]1CN(c2ccc(N3CCOCC3)c(F)c2)C(=O)O1 | 13 isolates | 32 µg/mL
C[C@H]1COc2c(N3CCN(C)CC3)c(F)cc3c(=O)c(C(=O)O)cn1c23 | 20 strains | 25 µg/mL
NC(=O)c1cnccn1 | 20 strains | >1600 µg/mL
Cc1c(N2C[C@@H](N)C3(CC3)C2)c(F)c(N)c2c(=O)c(C(=O)O)cn(C3CC3)c12 | 20 strains | 25 µg/mL
C[C@H]1COc2c(N3CCN(C)CC3)c(F)cc3c(=O)c(C(=O)O)cn1c23 |  | 1–32 µg/mL
CC[C@H]1OC(=O)[C@H](C)[C@@H](O[C@H]2C[C@@](C)(OC)[C@@H](O)[C@H](C)O2)[C@H](C)[C@@H](O[C@@H]2O[C@H](C)C[C@H](N(C)C)[C@H]2O)[C@](C)(OC)C[C@@H](C)C(=O)[C@H](C)[C@@H](O)[C@]1(C)O | 20 strains | 25 µg/mL
CNn1cc(C(=O)O)c(=O)c2cc(F)c(N3CCN(C)CC3)cc21 | 22 strains | 16 µg/mL
O=C(O)c1cn(-c2ccc(F)cc2F)c2c(F)c(N3CCNCC3)c(F)cc2c1=O | 14 strains | >32 µg/mL
CC[C@H]1OC(=O)[C@H](C)[C@@H](O[C@H]2C[C@@](C)(OC)[C@@H](O)[C@H](C)O2)[C@H](C)[C@@H](O[C@@H]2O[C@H](C)C[C@H](N(C)C)[C@H]2O)[C@](C)(O)C[C@@H](C)CN(C)[C@H](C)[C@@H](O)[C@]1(C)O | 20 strains | 32 µg/mL
C[C@H]1COc2c(N3CCN(C)CC3)c(F)cc3c(=O)c(C(=O)O)cn1c23 | 12 strains | 8 µg/mL
C[C@@H](O)[C@H]1C(=O)N2C(C(=O)O)=C(SCCOC(N)=O)S[C@H]12 | 22 strains | 16 µg/mL
CC[C@H]1OC(=O)[C@H](C)[C@@H](O[C@H]2C[C@@](C)(OC)[C@@H](O)[C@H](C)O2)[C@H](C)[C@@H](O[C@@H]2O[C@H](C)C[C@H](N(C)C)[C@H]2O)[C@](C)(OC)C[C@@H](C)C(=O)[C@H](C)[C@@H](O)[C@]1(C)O | 37 strains | 2 µg/mL
CO[C@H]1/C=C/O[C@@]2(C)Oc3c(C)c(O)c4c(O)c(c5c(c4c3C2=O)NC2(CCN(CC(C)C)CC2)N=5)=NC(=O)/C(C)=C\C=C\[C@H](C)[C@H](O)[C@@H](C)[C@@H](O)[C@@H](C)[C@H](OC(C)=O)[C@@H]1C | 52 strains | 1.56 µg/mL
CC(C)(N)C1CCN(c2c(F)cc3c(=O)c(C(=O)O)cn(C4CC4)c3c2F)C1 | 14 strains | 16 µg/mL
C[C@H]1c2cccc(O)c2C(O)=C2C(=O)[C@]3(O)C(O)=C(C(N)=O)C(=O)[C@@H](N(C)C)[C@@H]3[C@@H](O)[C@@H]21 | 11 strains | >128 µg/mL
COc1cc2c(c3oc(=O)c4c(c13)CCC4=O)C1C=COC1O2 | 32 isolates | 128 µg/mL
CC1COc2c(N3CCN(C)CC3)c(F)cc3c(=O)c(C(=O)O)cn1c23 |  | 16–128 µg/mL
NNC(=O)c1ccncc1 | 20 strains | >1.6 µg/mL
COc1c(N2CCNC(C)C2)c(F)cc2c(=O)c(C(=O)O)cn(C3CC3)c12 |  | 8–16 µg/mL
CCCN1CCN(c2cc(=O)c3nc4c(oc3c2)c2c(=O)c3c(O)c(C)c5c(c34)=C(O)[C@@](C)(O/C=C/[C@H](OC)[C@@H](C)[C@@H](OC(C)=O)[C@H](C)[C@H](O)[C@H](C)[C@@H](O)[C@@H](C)/C=C/C=C(/C)C(=O)N2)O5)CC1 | 20 strains | 0.3 µg/mL
NCC[C@H](O)C(=O)N[C@@H]1C[C@H](N)[C@@H](O[C@H]2O[C@H](CN)[C@@H](O)[C@H](O)[C@H]2O)[C@H](O)[C@H]1O[C@H]1O[C@H](CO)[C@@H](O)[C@H](N)[C@H]1O | 20 strains | 8 µg/mL
CO[C@H]1/C=C/O[C@@]2(C)Oc3c(C)c(O)c4c(O)c(c(/C=N/N5CCN(C)CC5)c(O)c4c3C2=O)NC(=O)/C(C)=C\C=C\[C@H](C)[C@H](O)[C@@H](C)[C@@H](O)[C@@H](C)[C@H](OC(C)=O)[C@@H]1C | 20 strains | 40–80 µg/mL
CCN1CCN(c2cc3c(cc2F)c(=O)c(C(=O)O)cn3C(C)(C)C)CC1 | 14 strains | 4 µg/mL
CCCC[C@@H]1CC(=O)[C@]2(O)O[C@@H]3[C@@H](NC)[C@@H](O)[C@@H](NC)[C@H](O)[C@H]3O[C@@H]2O1 |  | 21.9 µg/mL
COc1c(N2CC(C)NC(C)C2)c(F)cc2c(=O)c(C(=O)O)cn(C3CC3)c12 | 14 strains | 1 µg/mL
CC[C@H]1OC(=O)[C@H](C)[C@@H](O[C@H]2C[C@@](C)(OC)[C@@H](O)[C@H](C)O2)[C@H](C)[C@@H](O[C@@H]2O[C@H](C)C[C@H](N(C)C)[C@H]2O)[C@](C)(OC)C[C@@H](C)C(=O)[C@H](C)[C@@H](O)[C@]1(C)O | 32 isolates | 2 µg/mL
CN1CCN(CCCN=c2cc3n(-c4ccc(Cl)cc4)c4ccccc4nc-3cc2Nc2ccccc2)CC1 | 10 srtains | 0.87 µg/mL
CO[C@H]1/C=C/O[C@@]2(C)Oc3c(C)c(O)c4c(=O)c(c5oc6cc(N7CCN(CC(C)C)CC7)cc(=O)c6nc5c4c3=C2O)NC(=O)/C(C)=C\C=C\[C@H](C)[C@H](O)[C@@H](C)[C@@H](O)[C@@H](C)[C@H](OC(C)=O)[C@@H]1C | 20 strains | 0.07–0.15 µg/mL
O=C(O)c1cn(C2CC2)c2c(F)c(N3CCC(O)C3)c(F)cc2c1=O | 14 strains | 8 µg/mL
CO[C@H]1/C=C/O[C@@]2(C)Oc3c(C)c(O)c4c(=O)c(c5oc6cc(N7CCN(CC(C)C)CC7)cc(=O)c6nc5c4c3=C2O)NC(=O)/C(C)=C\C=C\[C@H](C)[C@H](O)[C@@H](C)[C@@H](O)[C@@H](C)[C@H](OC(C)=O)[C@@H]1C | 20 strains | 0.07–0.15 µg/mL
O=C(O)c1cn(C2CC2)c2c(F)c(N3CC4CC3CN4)c(F)cc2c1=O | 14 strains | 8 µg/mL
CO/N=C(/C(=O)N[C@@H]1C(=O)N2C(C(=O)O)=C(COC(N)=O)CS[C@H]12)c1ccco1 |  | 47.9 µg/mL
CO[C@H]1/C=C/O[C@@]2(C)Oc3c(C)c(O)c4c(O)c(c5c(c4c3C2=O)NC2(CCN(CC(C)C)CC2)N=5)=NC(=O)/C(C)=C\C=C\[C@H](C)[C@H](O)[C@@H](C)[C@@H](O)[C@@H](C)[C@H](OC(C)=O)[C@@H]1C | 37 strains | 0.5 µg/mL
CN1CCCC1CCN=c1cc2n(-c3ccc(Cl)cc3)c3ccccc3nc-2cc1Nc1ccccc1 | 10 srtains | 1.85 µg/mL
CN1CCN(CCCN2c3ccccc3Sc3ccc(C(F)(F)F)cc32)CC1 | 32 isolates | 8 µg/mL
CCC1CCN(c2c(F)cc3c(=O)c(C(=O)O)cn(C4CC4)c3c2F)C1 | 14 strains | 8 µg/mL
CCn1cc(C(=O)O)c(=O)c2cc(F)c(N3CCN(C)CC3)cc21 | 17 isolates | >16 µg/mL
NNC(=O)c1ccncc1 |  | 7.5 µg/mL
CC1CN(c2cc3c(cc2F)c(=O)c(C(=O)O)cn3C2CC2)CC(C)N1 | 14 strains | 1 µg/mL
CC(C)N=c1cc2n(-c3ccc(Cl)cc3)c3ccccc3nc-2cc1Nc1ccc(Cl)cc1 |  | 0.23 µg/mL
Clc1ccc(Nc2cc3nc4ccccc4n(-c4ccc(Cl)cc4)c-3cc2=NCCCN2CCCC2)cc1 | 10 srtains | 0.83 µg/mL
CN[C@@H]1[C@H](O[C@H]2[C@H](O[C@H]3[C@H](O)[C@@H](O)[C@H](N=C(N)N)[C@@H](O)[C@@H]3N=C(N)N)O[C@@H](C)[C@]2(O)C=O)O[C@@H](CO)[C@H](O)[C@H]1O |  | 3.85 µg/mL
CO[C@H]1/C=C/O[C@@]2(C)Oc3c(C)c(O)c4c(O)c(c5c(c4c3C2=O)NC2(CCN(CC(C)C)CC2)N=5)=NC(=O)/C(C)=C\C=C\[C@H](C)[C@H](O)[C@@H](C)[C@@H](O)[C@@H](C)[C@H](OC(C)=O)[C@@H]1C | 50 isolates | 2 µg/mL

Again, the opening 4 rows:

| smiles | strain | result |
|---|---|---|
| CC[C@@H](CO)NCCN[C@@H](CC)CO | 32 isolates | 8 µg/mL |
| COC(C(N)=NC1C(=O)N2C(C(=O)[O-])=C(C[N+]3(C)C=CC=C3)CSC12)c1cnc(N)s1 |  | 31.1 µg/mL |
| CC[C@@H](CO)NCCN[C@@H](CC)CO | 37 strains | 8 µg/mL |
| CC[C@H]1OC(=O)[C@H](C)[C@@H](O[C@H]2C[C@@](C)(OC)[C@@H](O)[C@H](C)O2)[C@H](C)[C@@H](O[C@@H]2O[C@H](C)C[C@H](N(C)C)[C@H]2O)[C@](C)(O)C[C@@H](C)CN(C)[C@H](C)[C@@H](O)[C@]1(C)O | 15 strains | 62 µg/mL |

Blank or dashed fields: not listed here. MIC50, MIC90 and the like: level of inhibition, or share of isolates inhibited. Neighbouring rows are from separate reports.